Laboratory results published in US20250011397A1 (HOSPITAL FOR SICK CHILDREN, published 2025).

Experiments:
[1] = target: T1, SARS-CoV-2 receptor binding domain (RBD), wild type, His-tagged (BEI NR52309) (SARS-CoV-2, UniProt P0DTC2 319-541); experiment: RBD KD column; method and antibody format not stated
T1 construct: also called WT RBD

[2] = target: T2, SARS-CoV-2 Spike on HIV-based pseudotyped virus (Spike plasmid BEI NR52310) (SARS-CoV-2, UniProt P0DTC2 14-1273); experiment: cell-based or functional assay
[3] = target: T2, SARS-CoV-2 Spike on HIV-based …; experiment: cell-based or functional assay; remark: listed apart in the source
[4] = target: Spike of authentic SARS-CoV-2/SB2-P4-PB virus (SARS-CoV-2, UniProt P0DTC2 14-1273); experiment: cell-based or functional assay

B1: mAb 298 (antibody, V domains shown)
VH: QVQLVQSGAEVKKPGASVKVSCKASGGTFSTYGISWVRQAPGQGLEWMGWISPNSGGTDLAQKFQGRVTMTRDTSTSTVYMELSSLRSEDTAVYYCASDPRDDIAGGYWGQGTLVTVSS
VL: not shown
notes: also called IgG 298; antibody 298
- Kd [1]: 24 nM
- Median IC50 (PsV neutralization) [2]: 0.28 µg/mL and 1.9 nM
- IC50 SARS-CoV2 PsV (µg/mL), IgG [3]: 2.8 µg/mL
- IC50 SARS-CoV2/SB2-P4-PB (µg/mL), IgG [4]: 2.2 µg/mL

B2: mAb 80 (antibody, V domains shown)
VH: QVQLVQSGAEVKKPGSSVKVSCKASGGTFNRYAFSWVRQAPGQGLEWMGGIIPIFGTANYAQKFQGRVTITADESTSTAYMELSSLRSEDTAVYYCARSTRELPEVVDWYFDLWGRGTLVTVSS
VL: DIVMTQSPDSLAVSLGERATINCKSSQSVLYSSNNKNYLAWYQQKPGQPPKLLIYWASTRESGVPDRFSGSGSGTDFTLTISSLQAEDVAVYYCQQYYSAPLTFGGGTKVEIKR
notes: also called IgG 80; 80 mAb
- Kd [1]: 142 nM
- Median IC50 (PsV neutralization) [2]: 0.1 µg/mL and 0.67 nM
- IC50 SARS-CoV2 PsV (µg/mL), IgG [3]: 0.1 µg/mL
- IC50 SARS-CoV2/SB2-P4-PB (µg/mL), IgG [4]: 12.7 µg/mL

Where “and” joins values, the source holds several entries; their conditions need not be identical. Equal values may be shown once.
